In PMC11883425, “The synthesis and investigation of novel 3-benzoylbenzofurans and pyrazole derivatives for anti-HIV activity” (RSC Medicinal Chemistry, 2025):

What was measured:
HIV-1 Q23 pseudovirus = test: HIV-1 whole virus inhibition assay, Q23 pseudovirus (luciferase, TZM-bl cells); format: cell-based; details: ratio of CC50 (TZM-bl) to IC50 (Q23)
Protocol: (§1) The HIV pseudoviruses were produced from the plasmids that were kindly donated by Dr Mthunzi-Kufa (CSIR, South Africa). Competent DH5α cells and STBL2 cells were transformed with envelope (CAP210.2.00.E8 and Q23.17) and backbone plasmid (HIV-1 SG3 ΔEnv) through heat-shock at 42 °C for 90 seconds and cooled in ice for 5 minutes. The transformed cells were grown in Luria Bertani medium containing 100 μg mL^−1 ampicillin and glycerol stocks were prepared. The transformed cells were grown at 37 °C in a 200 rpm shaking incubator overnight and the plasmids were isolated from the cells using a GeneJET plasmid Miniprep Kit (ThermoFisher Scientific Inc). The purity of the isolated plasmids was assessed for purity using Nanodrop. The HEK 293T cells were co-transfected with the backbone (10 μg) and envelope plasmids (5 μg) using the PolyFect Transfection Reagent (QIAGEN N.V) for 8–12 hours and the transfected cells were grown for 48 hours producing pseudoviruses which were collected, and stocks stored at −80 °C.
(§2) The compounds were serial diluted from 100 to1.56 μM in 96 well plates (Separation Scientific SA (Pty) Ltd) and incubated with either CAP210 or Q23 pseudoviruses (200 TCID50) and incubated for 1 hour. The TZM-bl cells (1 × 10^5 cells per mL containing 7.5 μg mL^−1 DEAE-dextran) were added and incubated for 48 hours. The 96 well plates were centrifuged, and the supernatant was removed leaving only 50 μL in each well. The Bright-Glo™ Luciferase substrate (Anatech Instruments (Pty) Ltd) (50 μL) was added to each well and incubated for 2 minutes in the dark and chemiluminescence readings were taken in a Corning® 96-well white polystyrene plate using a SpectraMax® Paradigm® Multi-Mode Microplate Reader.

HIV-1 CAP210 pseudovirus = test: HIV-1 whole virus inhibition assay, CAP210 pseudovirus (luciferase, TZM-bl cells); format: cell-based; details: ratio of CC50 (TZM-bl) to IC50 (CAP210)
Protocol: as §1, §2

SMILES: COc1ccc(-c2n[nH]cc2-c2cc(O)ccc2O)c(OC)c1OC [5g, 2-[3-(2,3,4-Trimethoxyphenyl)-1H-pyrazol-4-yl]benzene-1,4-diol]
- SI (Q23) (HIV-1 Q23 pseudovirus): 14.11
- SI (CAP210) (HIV-1 CAP210 pseudovirus): 10.15

SMILES: COc1cc(F)ccc1-c1n[nH]cc1-c1cc(OC)c2ccccc2c1O [5e, 2-[3-(4-Fluoro-2-methoxyphenyl)-1H-pyrazol-4-yl]-4-methoxynaphthalen-1-ol]
- SI (Q23) (HIV-1 Q23 pseudovirus): 6.60
- SI (CAP210) (HIV-1 CAP210 pseudovirus): 3.55

SMILES: COc1ccc(OC)c(-c2n[nH]cc2-c2c(O)cc(C)c(OC)c2C)c1 [5a, 2-[3-(2,5-Dimethoxyphenyl)-1H-pyrazol-4-yl]-4-methoxy-3,5-dimethylphenol]
- SI (Q23) (HIV-1 Q23 pseudovirus): 6.67
- SI (CAP210) (HIV-1 CAP210 pseudovirus): 4.83

SMILES: COc1ccc(C(=O)c2coc3ccc(O)cc23)c(OC)c1OC [3g, (5-Hydroxybenzofuran-3-yl)(2,3,4-trimethoxyphenyl)methanone]
- SI (Q23) (HIV-1 Q23 pseudovirus): 20.47
- SI (CAP210) (HIV-1 CAP210 pseudovirus): 16.26

SMILES: COc1ccc(OC)c(C(=O)c2coc3c2cc(OC)c2ccccc23)c1 [4c, (2,5-Dimethoxyphenyl)(5-methoxynaphtho[1,2-b]furan-3-yl)methanone]
- SI (Q23) (HIV-1 Q23 pseudovirus): 0.76
- SI (CAP210) (HIV-1 CAP210 pseudovirus): 3.97

SMILES: COc1ccc(OC)c(C(=O)c2coc3c(C)cc(OC)c(C)c23)c1 [4b, (2,5-Dimethoxyphenyl)(5-methoxy-4,7-dimethyl-1-benzofuran-3-yl)methanone]
- SI (Q23) (HIV-1 Q23 pseudovirus): 17.18
- SI (CAP210) (HIV-1 CAP210 pseudovirus): 70.17

SMILES: COc1ccc(Br)cc1C(=O)c1coc2c1cc(OC)c1ccccc12 [4d, (5-Bromo-2-methoxyphenyl)(5-methoxynaphtho[1,2-b]furan-3-yl)methanone]
- SI (Q23) (HIV-1 Q23 pseudovirus): 0.35
- SI (CAP210) (HIV-1 CAP210 pseudovirus): 2.36

SMILES: COc1cc(F)ccc1C(=O)c1coc2ccc(O)cc12 [3f, (4-fluoro-2-methoxyphenyl)(5-hydroxy-1-benzofuran-3-yl)methanone]
- SI (Q23) (HIV-1 Q23 pseudovirus): 1.03
- SI (CAP210) (HIV-1 CAP210 pseudovirus): 3.76

SMILES: COc1ccc(OC)c(-c2n[nH]cc2-c2cc(OC)c3ccccc3c2O)c1 [5c, 2-[3-(2,5-Dimethoxyphenyl)-1H-pyrazol-4-yl]-4-methoxynaphthalen-1-ol]
- SI (Q23) (HIV-1 Q23 pseudovirus): 3.68
- SI (CAP210) (HIV-1 CAP210 pseudovirus): 2.33

SMILES: COc1ccc(OC)c(-c2n[nH]cc2-c2cc(O)ccc2O)c1 [5h, 2-[3-(2,5-Dimethoxyphenyl)-1H-pyrazol-4-yl]benzene-1,4-diol]
- SI (Q23) (HIV-1 Q23 pseudovirus): 17.48
- SI (CAP210) (HIV-1 CAP210 pseudovirus): 22.55

SMILES: COc1ccc(OC)c(C(=O)c2coc3cc(C)c(OC)c(C)c23)c1 [4a, (2,5-Dimethoxyphenyl)(5-methoxy-4,6-dimethyl-1-benzofuran-3-yl)methanone]
- SI (Q23) (HIV-1 Q23 pseudovirus): 3.26
- SI (CAP210) (HIV-1 CAP210 pseudovirus): 7.26

SMILES: Cc1ccnc2c1NC(=O)c1cccnc1N2C1CC1 [NVP, nevirapine, reference compound]
- SI (Q23) (HIV-1 Q23 pseudovirus): >500
- SI (CAP210) (HIV-1 CAP210 pseudovirus): >500

SMILES: COc1ccc(OC)c(C(=O)c2coc3ccc(O)cc23)c1 [3h, (5-Hydroxybenzofuran-3-yl)(2,5-dimethoxyphenyl)methanone]
- SI (Q23) (HIV-1 Q23 pseudovirus): 8.71
- SI (CAP210) (HIV-1 CAP210 pseudovirus): 11.23

SMILES: COc1ccc(Br)cc1-c1n[nH]cc1-c1cc(OC)c2ccccc2c1O [5d, 2-[3-(5-Bromo-2-methoxyphenyl)-1H-pyrazol-4-yl]-4-methoxynaphthalen-1-ol]
- SI (Q23) (HIV-1 Q23 pseudovirus): 4.62
- SI (CAP210) (HIV-1 CAP210 pseudovirus): 3.61

SMILES: COc1cc(F)ccc1-c1n[nH]cc1-c1cc(O)ccc1O [5f, 2-[3-(4-Fluoro-2-methoxyphenyl)-1H-pyrazol-4-yl]benzene-1,4-diol]
- SI (Q23) (HIV-1 Q23 pseudovirus): 92.49
- SI (CAP210) (HIV-1 CAP210 pseudovirus): 36.43

SMILES: COc1ccc(OC)c(-c2n[nH]cc2-c2c(C)c(OC)cc(C)c2O)c1 [5b, 2-[3-(2,5-Dimethoxyphenyl)-1H-pyrazol-4-yl]-4-methoxy-3,6-dimethylphenol]
- SI (Q23) (HIV-1 Q23 pseudovirus): 4.60
- SI (CAP210) (HIV-1 CAP210 pseudovirus): 5.90

SMILES: COc1cc(F)ccc1C(=O)c1coc2c1cc(OC)c1ccccc12 [4e, (4-Fluoro-2-methoxyphenyl)(5-methoxynaphtho[1,2-b]furan-3-yl)methanone]
- SI (Q23) (HIV-1 Q23 pseudovirus): 1.68
- SI (CAP210) (HIV-1 CAP210 pseudovirus): 8.24
